Anti-infective test results gathered from many reports (values: NIAID ChemDB through PubChem).

Common to all: tests in culture; species: Parainfluenza virus; endpoint: EC50

Rows are shuffled and stem from different studies. An empty or dashed field is not shown. ECn is the concentration giving n% inhibition of infection, replication or growth.

C[C@H](COc1cc(N)nc(N)n1)OCP(=O)(O)O ; strain or isolate: TYPE 3 ; read by: cytopathic effect ; value: >180 µM
O=[N+]([O-])c1cc(Cl)c(Cl)cc1[N+](=O)[O-] ; strain or isolate: TYPE 3 ; cell line: HeLa ; read by: cytopathic effect ; value: >4 µg/mL
C/C=C1/[C@H](O[C@@H]2O[C@H](CO)[C@@H](O)[C@H](O)[C@H]2O)OC=C(C(=O)OC)[C@H]1CC(=O)OCCc1ccc(O)c(O)c1 ; strain or isolate: TYPE 3 ; cell line: HEP-2 ; read by: cytopathic effect ; value: 11.7 µM
NC(=O)c1ncn([C@@H]2O[C@H](CO)[C@@H](O)[C@H]2O)n1 ; strain or isolate: ATCC VR-93 (TYPE 3) ; cell line: HeLa ; read by: plaque count ; value: 18 µg/mL
Nc1ncnc2c1ncn2[C@@H]1C[C@@H](O)[C@H](CO)O1 ; strain or isolate: TYPE 3 ; cell line: MA-104 ; value: >100 µM
C[C@@H](O)C1=C[C@@H](n2cnc3c(N)ncnc32)[C@H](O)[C@@H]1O ; strain or isolate: TYPE 3/HA-1 C243 ; cell line: VERO ; read by: plaque count ; value: 0.16 µg/mL
COc1c(C)c2c(c(O)c1CC(=O)O)C(=O)OC2 ; strain or isolate: TYPE 3/C243 ; cell line: VERO ; read by: plaque count ; value: 0.1 µg/mL
NC(=O)c1csc([C@@H]2O[C@H](CO)[C@@H](O)[C@H]2O)n1 ; strain or isolate: TYPE 3/C243 ; cell line: HeLa ; read by: cytopathic effect ; value: 11 µg/mL
COc1ccc(-c2cc(=O)c3c(OC)cc(OC)c([C@H]4C(=O)c5c(OC)cc(OC)cc5O[C@@H]4c4ccc(OC)cc4)c3o2)cc1 ; strain or isolate: C243 (TYPE 3) ; cell line: MA-104 ; read by: neutral red ; value: >32 µg/mL
C/C=C1\[C@H](OC2O[C@H](CO)[C@@H](O)[C@H](O)[C@H]2O)OC=C(C(=O)O)[C@H]1CC(=O)OCCc1ccc(O)cc1 ; strain or isolate: TYPE 3 ; cell line: HEP-2 ; read by: cytopathic effect ; value: 15.6 µM
Cc1cn([C@@H]2C[C@@H](O)[C@H](CO)O2)c(=O)[nH]c1=O ; strain or isolate: TYPE 3 ; cell line: MA-104 ; value: >100 µM
Nc1ccn([C@@H]2C[C@@H](O)[C@H](CO)O2)c(=O)n1 ; strain or isolate: TYPE 3 ; cell line: MA-104 ; value: >100 µM
OC[C@H]1O[C@@H](n2cnc3cc(Cl)c(Cl)cc32)[C@H](O)[C@@H]1O ; strain or isolate: TYPE 3 ; cell line: HeLa ; read by: cytopathic effect ; value: >10 µg/mL
Nc1ncnc2c1ncn2CCOCP(=O)(O)O ; strain or isolate: TYPE 3 ; read by: cytopathic effect ; value: >185 µM
C/C=C1\[C@H](OC2O[C@H](CO)[C@@H](O)[C@H](O)[C@H]2O)OC=C(C(=O)OC)[C@H]1CC(=O)OC ; strain or isolate: TYPE 3 ; cell line: HEP-2 ; read by: cytopathic effect ; value: 20.8 µM
Cc1cn([C@@H]2C[C@@H](O)[C@H](CO)O2)c(=O)[nH]c1=O ; strain or isolate: TYPE 3 ; cell line: MA-104 ; value: >100 µM
Clc1cc2nc[nH]c2cc1Cl ; strain or isolate: TYPE 3 ; cell line: HeLa ; read by: cytopathic effect ; value: >10 µg/mL
NC(=O)c1ncn([C@@H]2O[C@H](CO)[C@@H](O)[C@H]2O)n1 ; strain or isolate: TYPE 3 ; cell line: HEP-2 ; read by: cytopathic effect ; value: 12.5 µg/mL
OC[C@H]1O[C@@H](n2cnc3cc(Cl)c(Cl)cc32)[C@H](O)[C@H]1O ; strain or isolate: TYPE 3 ; cell line: HeLa ; read by: cytopathic effect ; value: >100 µg/mL
Nc1cc(OCCOCP(=O)(O)O)nc(N)n1 ; strain or isolate: TYPE 3 ; read by: cytopathic effect ; value: >190 µM
Nc1nc2c(ncn2COCOCP(=O)(O)O)c(=O)[nH]1 ; strain or isolate: C243 (TYPE 3) ; read by: cytopathic effect ; value: 14 µg/mL
OCCOC(CCO)n1cnc2cc(Cl)c(Cl)cc21 ; strain or isolate: TYPE 3 ; cell line: HeLa ; read by: cytopathic effect ; value: >100 µg/mL

Again, the opening 2 rows:

smiles	strain or isolate	cell line	read by	value
C[C@H](COc1cc(N)nc(N)n1)OCP(=O)(O)O	TYPE 3		cytopathic effect	>180 µM
O=[N+]([O-])c1cc(Cl)c(Cl)cc1[N+](=O)[O-]	TYPE 3	HeLa	cytopathic effect	>4 µg/mL